The subject of one data set is CC(=O)C(=O)O. The data set can be described thus: purified protein. The settings on record: pH 7.4; 30.0 °C.
The next data set concerns O=C(O)C[C@H](O)C(=O)O. The data set can be described thus: purified protein. The note with it: pH 7.4; 30.0 °C.

Turning to “Mtb MEZ (malic enzyme) (Mycobacterium tuberculosis H37Rv)”, in the data set with CC(=O)C(=O)O, the K0.5 was 91.98 ± 6.73 mM and the kcat is 86.2 s⁻¹. Also, in the data set on O=C(O)C[C@H](O)C(=O)O, the K0.5 was 18.86 ± 0.52 mM and the kcat was 2120 s⁻¹.

For the origin of these results see paper PMC5900758.
